Article PMC6397180 (Scientific Reports, 2019)

System: PMA-differentiated THP-1 cells
Assay: Confocal microscopy of labeled CPP uptake
Assay type: cell-based
Conditions: 1 μM peptide, 37 °C, 30 minutes, trypsin to strip surface-bound CPP, fluorescence 488 nm
Protocol: Approximately 4 × 10^5 THP-1 cells were plated in 35 mm MatTek cover dishes in media containing 10 nM PMA to induce adherence and differentiation. After 48 h the media was changed to RPMI/FBS without PMA. Thirty minutes before adding the labeled-CPPs, cell media were replaced with low serum (1% FBS) RPMI. THP-1 cells were treated with CPP for 30 minutes at 37 °C, washed twice with phosphate buffered saline (PBS) in 10% FBS, and incubated with 0.05% trypsin for 10 minutes to digest any surface-bound CPPs. Cells were washed twice with PBS/FBS and then incubated for 20 minutes in Hank’s Buffered Salt Solution (HBSS) with 1X diluted WGA-633 cell membrane stain (Life Technologies). […] Cells were imaged using a Leica SP8 Confocal Microscope and collected fluorescence data from 405 nm (DAPI stained cell nuclei), 488 nm (internalized labeled-CPP signal), and 633 nm (WGA-633 stained plasma membrane) channels as a series of Z-stacks. Analysis of cells with red and green fluorescence was conducted using Image J. The perimeter of each cell was circled using the red stain as a guide. Subsequently, mean intensity of green fluorescence contained in each cell was measured. For each condition, three random fields of view were analyzed. For control, R57 and S57, a total of 146, 81 and 119 cells were analyzed.

Q: With “DAEFRHDSGY [CPP-control, control peptide of the same length derived from human β-amyloid, same fluorescent label, reference compound]” as the sequence, how does the “internalization of labeled peptide (confocal microscopy)” value read?
A: background levels of uptake
